From the supplement of paper PMC9931576
Human monoclonal antibodies against the spike receptor-binding domain (heavy:light variable regions). IC50 against pseudoviruses bearing the spike of naturally observed variants; lower = stronger; >10 µg/ml means not reached at the top dose. No active / inactive call. The stated detection limit is 0.0005 µg/ml; values near or below 0.001 µg/ml lie at the floor of the assay.

Tests used:
Test in all cases: pseudovirus neutralization IC50; higher = weaker neutralization
[1] = molecular target: SARS-CoV-2 Omicron BA.1 spike pseudovirus
Experimental: (§1)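 Single-round VSV luciferase pseudovirus mixed with antibody dilutions for 1 h and put on Huh-7 cells for about a day; IC50 from the dose curve.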

[2] = molecular target: SARS-CoV-2 Omicron BA.2 spike pseudovirus
Experimental: as §1

[3] = molecular target: SARS-CoV-2 Omicron BA.2.75 spike pseudovirus
Experimental: as §1

[4] = molecular target: SARS-CoV-2 Omicron BA.5 spike pseudovirus
Experimental: as §1

[5] = molecular target: SARS-CoV-2 Omicron BQ.1.1 spike pseudovirus
Experimental: as §1

[6] = molecular target: SARS-CoV-2 Omicron XBB spike pseudovirus
Experimental: as §1

[7] = molecular target: SARS-CoV-2 early D614G spike pseudovirus
Experimental: as §1

Row | Binder | pseudovirus neutralization IC50 [1] | pseudovirus neutralization IC50 [2] | pseudovirus neutralization IC50 [3] | pseudovirus neutralization IC50 [4] | pseudovirus neutralization IC50 [5] | pseudovirus neutralization IC50 [6] | pseudovirus neutralization IC50 [7]
1 | BD55-6721 (protein) chain 1: EVQLVESGGGLVQPGGSLRLSCTASGFTFSNYAMHWVRQAPGKGLEFVSSIVSNGVGTFYAKSVQGRFTVSRDNSKNTMYLQMASLTTEDMAVYYCAREHSAYYLAFDYWGQGALVIVSS chain 2: DIQMTQSPSSLSASVGDRVTITCRASQSISRYLNWYQQKQGKAPKLLIHAASNLQSGVPSRFSGSGSGTDFTLTISSLQPEDFATYFCQQSYTTPQYTFGQGTKLEIK | > 10 mg/L | > 10 mg/L | > 10 mg/L | > 10 mg/L | > 10 mg/L | > 10 mg/L | > 10 mg/L
2 | BD55-6722 (protein) chain 1: EVQLVESGGGLTQPGGSLRLSCVASGFIFSDYDMHWVRQAPGKGLEWVSAIGTAGDTYYPASVKGRFTVSRDNGKHLLHLQMSSLTAGDTAVYYCVRVPMIRGDHYGMDVWGRGTTVTVSS chain 2: SYELTQPPSVSVSPGQTARIACSGDALPRQYASWYQQKPGQAPVLIIYKDTERPSGIPERFSASSSGTTVTLSISGVQTEDEADYYCQSADSGFVVFGGGTKLTVL | > 10 mg/L | > 10 mg/L | > 10 mg/L | > 10 mg/L | > 10 mg/L | > 10 mg/L | > 10 mg/L
3 | BD55-6718 (protein) chain 1: QAQLVQSGSELKKPGASVKVSCKASGYTFANYAMHWVRQAPGQGLEWMGWISTNTGNPTYGQDFTGRFVFSLDTSVSTAYLQISSLKAEDTAVYYCARGDRNYFGYEASDIWGQGTMVTVSS chain 2: DIQLTQSPPSLSASVGDRVTITCRASQSISNYLNWYQQKPGKAPNLLIYAASSLQTGVPSRFSGSGSGTDFSLTISSLQPEDFATYYCQQSYSSHLFTFGGGTKVEI | > 10 mg/L | > 10 mg/L | > 10 mg/L | > 10 mg/L | > 10 mg/L | > 10 mg/L | > 10 mg/L
4 | BD55-1315 (protein) chain 1: EVQLVESGGGLIQPGGSLRLSCAASGLIVDRNYMTWVRQAPGKGLEWVAVIYSGGSTFYADSVKGRFIISRDSSNNTLYLQMNSLRAADTAVYYCARDAINYGMDVWGQGTMVTVSS chain 2: DIQLTQSPSSLSASVGDRVTITCRASQSVSGYLNWYQQKPGKAPKLLISGGSSLQSGVPSRFSGTTSGTDFTLTISNLQPEDFATYYCQQSYSHTTFGPGTKVDV | > 10 mg/L | > 10 mg/L | > 10 mg/L | 5.07 mg/L | > 10 mg/L | > 10 mg/L | 0.00463 mg/L
5 | BD55-6711 (protein) chain 1: QLQLRESGPGLVKPSETLSLTCTVSGGSISSTTYYWGWVRQPPGKGLEWIGSIHYSGSTYYNPSLESRVTISVDTSKSQFSLKLSSVTAADTSVYYCRGTSGWSSYYSYMDVWGNGTTVTVSS chain 2: DIVMTQSPDSLAVSLGERATINCKSSQSLLYSSNNKNYLAWYQQKPGQPPKLLIYWASTRESGVPDRFSGSGSGTDFTLTINSLQAEDVAVYYCQQYYSTRRMYTFGQGTKLEIK | > 10 mg/L | > 10 mg/L | > 10 mg/L | > 10 mg/L | > 10 mg/L | > 10 mg/L | > 10 mg/L
6 | BD55-6714 (protein) chain 1: QEQLVQSGSELKKPGASVKLSCKAAGYTFTKYTLNWVRQVPGQGLEWMGWINTNTGTPTYAQVFTGRFVFSLDTSVRTAYLQISGLKTEDTAVYYCARREHYDFVWGAPYYFDLWGQGTLVTVSS chain 2: SYELTQPPSVSVSPGQTARITCSGDTLPKQYAYWYQQKPGQAPVLMIYKDSERPSGIPERFSGSSSGTAVTLTITGVQAEDEADYYCQSLDTRTTYRVLFGGGTKLTVL | > 10 mg/L | > 10 mg/L | > 10 mg/L | > 10 mg/L | > 10 mg/L | > 10 mg/L | 1.96 mg/L
7 | BD55-6723 (protein) chain 1: QVTLKESGPVLVKPTETLTLTCTVSGFSLSDARMGVSWIRQPPGKALEWLGHIFSNDDKSYNTSLKSRLTISKDTSRSQVVLTMTNMDPVDTATFYCARVEGFWSGSYYYYNMDVWGKGTTVTVSS chain 2: EIVLTQSPATLSLSPGERATLSCRASQSVNNYLAWYQKKPGQAPRLLIYGASNRATGIPARFSGSGSGPDFTLTISSLEPEDFAVYYCQQRSDWPLIFTFGPGTKLDIK | 0.186 mg/L | 0.151 mg/L | 1.25 mg/L | 0.279 mg/L | 0.289 mg/L | > 10 mg/L | 0.00514 mg/L
